# Assay results reported in PubChem BioAssay (NCATS).
# Only a part is listed here, and it is no random draw. Results filed as inconclusive are left out. For some assays here: Measured potencies and affinities stand elsewhere. Activity calls are given as the source filed them.
# What was measured:
# [1] = Ebola virus entry assay, green fluorescence channel
# [2] = Ebola virus entry assay, blue channel fluorescence
# [3] = Ebola virus entry assay, ratio channel
# [4] = Ebola virus entry assay, green channel fluorescence
# [5] = Ebola virus entry assay, reporter ratio channel; Channel type: primary
# [6] = Ebola virus entry assay, blue channel (ratio component)
# [7] = qHTS assay for measurement of the activity of small molecule inhibitors on Zika virus induced Caspase-3 activity in human iPSC derived neural progenitor cells (hNPCs) (AID 1224857); details: hNPCs ZIKV-induced caspase-3/7, Caspase-Glo luminescence, 6 h; at 45.7 µM (top of the series); note: % of control where 0% means no effect; nearly all actives have a fitted effect of over 65% in size
# Procedure, shortened: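 Cells were plated at 350 per well and grown 16 to 20 hours. Compound pretreatment lasted one hour, after which ZIKV (2 FFU/cell) was added for 6 hours. Percent inhibition was normalized between uninfected and infected controls.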
# [8] = qHTS assay for measurement of the activity of small molecule inhibitors on Zika virus induced Caspase-3 activity in human astrocytoma cells (AID 1224859); details: SNB-19 ZIKV-induced caspase-3/7, luminescence, 6 h; at 45.7 µM (top of the series);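 note: plate controls were ZIKV-infected untreated cells for no effect and uninfected cells for full effect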
# Procedure, shortened: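 Percent inhibition of virus-induced caspase-3/7 signal is calculated against uninfected and ZIKV-infected control cells. Cells are SNB-19, infected at 2 FFU/cell for 6 h after 1 h compound exposure.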
# [9] = NS1 protein of Zika virus - qHTS assay to identify small molecule inhibitors in human HEK 293 cells (AID 1347053); details: HEK293 ZIKV MR766 infection, NS1 TR-FRET, 24 h; at 46.1 µM (top of the series);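 note: plate controls were infected untreated cells for no effect and uninfected cells for full effect; nearly all actives have a fitted effect of over 55% in size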
# Procedure, shortened: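 HEK 293; 20 h pre-culture, 37 C/5% CO2; cpd 1 h pre-infection; ZIKV MR766, MOI = 0.5, 24 h, 37 C; TR-FRET NS1 readout (two anti-NS1 Abs); norm. to no-virus vs infected.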
# [10] = qHTS for Inhibitors of the Functional Ribonucleoprotein Complex (vRNP) of Lassa (LASV) Arenavirus: LASV Primary Screen - GLuc reporter signal (AID 1347082; calls by dose curve; tested in HEK293 reporter line; note: % is set by controls: 0 for no effect and ±100 for the full control effect; nearly all actives have a fitted effect of over 60% in size); details: LASV minigenome vRNP, Gaussia luciferase reporter; at 57.5 µM (top of the series)
# [11] = qHTS for Inhibitors of the Functional Ribonucleoprotein Complex (vRNP) of Lassa (LASV) Arenavirus: Viability assay - alamar blue signal for LASV Primary Screen (AID 1347083; calls by dose curve; tested in HEK293 reporter line; note: % is set by controls: 0 for no effect and ±100 for the full control effect; nearly all actives have a fitted effect of over 80% in size); details: cell viability, alamar blue fluorescence (LASV minigenome counter-screen); at 57.5 µM (top of the series)
# [12] = qHTS for Inhibitors of the Functional Ribonucleoprotein Complex (vRNP) of Lymphocytic Choriomeningitis Arenaviruses (LCMV): Viability assay - alamar blue signal for LCMV Primary Screen (AID 1347085; calls by dose curve; tested in HEK293 reporter line; note: % is set by controls: 0 for no effect and ±100 for the full control effect; nearly all actives have a fitted effect of over 80% in size); details: alamar blue viability counter-screen, LCMV vRNP screen cells; at 57.5 µM (top of the series)
# [13] = molecular target: Nucleoprotein (Lymphocytic choriomeningitis virus (strain Armstrong)) (UniProt P09992); experiment: qHTS for Inhibitors of the Functional Ribonucleoprotein Complex (vRNP) of Lymphocytic Choriomeningitis Arenaviruses (LCMV): LCMV Primary Screen - GLuc reporter signal (AID 1347086; calls by dose curve; note: % is set by controls: 0 for no effect and ±100 for the full control effect; nearly all actives have a fitted effect of over 70% in size); details: LCMV minigenome vRNP cell assay, Gaussia luciferase reporter; at 57.5 µM (top of the series)
# [14] = tested on: Zika virus NS2B-NS3 protease; experiment: Primary screen GU AMC qHTS for Zika virus inhibitors (AID 1347154); details: Zika NS2B-NS3 unlinked protease, AMC fluorogenic substrate; at 54.1 µM (top of the series);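 note: 0% = no-inhibitor control and -100% = no-enzyme control; nearly all actives have a fitted effect of over 70% in size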
# Procedure, shortened: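 Unlinked Zika NS2B hydrophilic domain/NS3 protease domain noncovalent complex (25 nM final) in 10 mM Tris-HCl pH 8.0, 0.01% Tween 20, with AMC peptide substrate. Fluorescence (ex 340, em 450 nm) change over 15 min, room temperature; percent inhibition fitted to 4-parameter Hill equation.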
# [15] = Primary qHTS for inhibitors of La Crosse Virus (LACV) - induced cell death in SH-SY5Y cells (AID 1508616); details: SH-SY5Y LACV cytopathicity rescue, ATP luminescence, 6 d; at 4.29 µM (top of the series);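 note: top concentration of the series differs between compounds; 0% = infected DMSO wells and 100% = uninfected DMSO wells; higher means more rescue of cells from virus-induced death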
# Procedure, shortened: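 SH-SY5Y cells (6000/well) plated 24 h, then given compounds by pin transfer and LACV at 0.01 MOI for 6 days at 37C. Viability measured by ATPLite luminescence, normalized to infected DMSO and uninfected DMSO.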
# [16] = qHTS profiling of the MIPE4 collection as inhibitors of Plasmodium falciparum (3D7) proliferation (AID 743344; call rule not given here;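 note: scaled between DMSO vehicle wells and 0.29 µM artemisinin as full inhibition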); details: P. falciparum 3D7 in erythrocytes, SYBR Green DNA fluorescence, 72 h; at 28.5 µM (top of the series)
# [17] = qHTS profiling of the MIPE4 collection as inhibitors of Plasmodium falciparum (DD2) proliferation (AID 743345; call rule not given here); details: P. falciparum Dd2 in erythrocytes, SYBR Green DNA, 72 h; at 28.5 µM (top of the series)
# [18] = qHTS profiling of the MIPE4 collection as inhibitors of Plasmodium falciparum (DD2) proliferation (Rep 2) (AID 743346; call rule not given here); details: P. falciparum Dd2 in erythrocytes, SYBR Green DNA, 72 h; at 28.5 µM (top of the series)
# [19] = qHTS profiling of the MIPE4 collection as inhibitors of Plasmodium falciparum (HB3) proliferation (AID 743347; call rule not given here;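 note: plate controls were DMSO vehicle wells for no effect and artemisinin wells for full effect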); details: P. falciparum HB3 in erythrocytes, SYBR Green DNA, 72 h; at 28.5 µM (top of the series)
# [20] = Cytotoxicity counterscreen for inhibitors of SARS-CoV-2 cell entry (AID 1645845; calls by dose curve; note: nearly all actives have a fitted effect of over 50% in size); details: cell viability (SARS-CoV-2 entry assay cells); at 57.1 µM (top of the series)
# Procedure, shortened: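 Expi293F/hACE2 cells seeded overnight; cpd pin-transferred in DMSO, 1 h preincubation, + media, 48 h 37 C 5% CO2; ATPLite 1step luminescence; normalized to cells and no cells.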
# [21] = Primary qHTS to identify inhibitors of SARS-CoV-2 cell entry (AID 1645846; calls by dose curve; note: nearly all actives have a fitted effect of over 45% in size); details: SARS-CoV-2 pseudovirus cell entry assay, luminescence; at 57.1 µM (top of the series)
# Procedure, shortened: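 Luminescence readout (Bright-Glo luciferase) 48 h after pseudoparticle addition. HEK293-ACE2 cells, 1500/well; compound pre-incubation 1 h; Normalized to spike PP and bald PP.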
# [22] = tested on: Zika virus NS2B-NS3 protease (unlinked complex); experiment: Primary screen GU Rhodamine qHTS for Zika virus inhibitors: Unlinked NS2B-NS3 protease assay (AID 1347159); details: Recombinant ZIKV NS2B-NS3 protease, Rhodamine110 substrate fluorescence; at 107 µM (top of the series); note: % is set by controls: 0 for no effect and ±100 for the full control effect; nearly all actives have a fitted effect of over 60% in size
# Procedure, shortened: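 Compounds, tested up to 114 microM, were incubated for 15 minutes with 25 nM unlinked NS2B-NS3 protease at pH 8.0. Cleavage of 1.5 microM Rhodamine110 substrate was then followed by fluorescence for 15 minutes.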
# [23] = tested on: Zika virus NS2B-NS3 protease (linked construct); experiment: Primary screen NINDS Rhodamine qHTS for Zika virus inhibitors (AID 1347160); details: purified NS2B-NS3 protease, Rhodamine110 substrate fluorescence; at 57.1 µM (top of the series); note: % is set by controls: 0 for no effect and ±100 for the full control effect; nearly all actives have a fitted effect of over 55% in size
# Procedure, shortened: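 Percent inhibition, normalized to uninhibited and enzyme-free controls, is fitted to a 4-parameter Hill equation. Fluorescence change comes from a 15-min cleavage of 1.5 microM bis-peptide Rhodamine110 substrate by 25 nM linked NS2B-NS3 at room temperature.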
# [24] = Confirmatory qHTS for activators (rescue) of SARS-CoV-2 Cytopathic Effect (CPE) (AID 1508606; calls by dose curve; note: potency is the fitted concentration of half-maximal effect; nearly all actives have a fitted effect of over 70% in size); details: Vero E6 SARS-CoV-2 CPE rescue, viability luminescence
# Throughout, for efficacy: 0% is about no effect.
structure (smiles),measurement,setting,value
CCC(=O)N(c1ccccc1)C1CCNCC1,efficacy,[1],inactive: 11.1%
same,outcome,[2],inactive
same,outcome,[3],inactive
same,outcome,[4],inactive
same,outcome,[5],inactive
same,outcome,[6],inactive
same,"activity change, negative = inhibition",[7],inactive: -0.321%
same,"activity change, negative = inhibition",[8],inactive: 2.25%
same,"activity change, negative = inhibition",[9],inactive: -1.09%
same,"activity change, negative = inhibition",[10],inactive: -0.293%
same,"activity change, negative = reduced viability",[11],inactive: -1.32%
same,"activity change, negative = lower viability",[12],inactive: 17.1%
same,"activity change, negative = inhibition",[13],inactive: -2.55%
same,"activity change, negative = inhibition",[14],inactive: -9.06%
same,activity change,[15],inactive: -2.5%
CCOC(=O)N1CCC(=O)CC1,outcome,[4],inactive
same,outcome,[5],inactive
same,outcome,[6],inactive
same,"activity change, negative = inhibition",[7],inactive: 25.8%
same,"activity change, negative = inhibition",[8],inactive: 6.6%
same,"activity change, negative = inhibition",[9],inactive: -8.38%
same,"activity change, negative = inhibition",[10],inactive: -0.395%
same,"activity change, negative = reduced viability",[11],inactive: -4.51%
same,"activity change, negative = lower viability",[12],inactive: -3.2%
same,"activity change, negative = inhibition",[13],inactive: 4.26%
same,"activity change, negative = inhibition",[14],inactive: -4.71%
same,activity change,[15],inactive: -0.583%
CCOC(=O)C(=O)CBr,"parasite growth, % of DMSO control",[16],84.5%
same,"parasite growth remaining, % of DMSO control (lower = more inhibition)",[17],101%
same,"parasite growth, % of control (lower = inhibition)",[18],93.2%
same,"growth, % of control",[19],104%
same,"activity change, negative = inhibition",[7],inactive: 13.5%
same,"activity change, negative = inhibition",[8],inactive: -11.3%
same,"activity change, negative = inhibition",[9],inactive: 1.79%
same,"activity change, negative = inhibition",[10],inactive: -1.91%
same,"activity change, negative = reduced viability",[11],inactive: 10.7%
same,"activity change, negative = lower viability",[12],inactive: -1.6%
same,"activity change, negative = inhibition",[13],inactive: 6.4%
same,"activity change, negative = inhibition",[14],inactive: -3.49%
same,outcome,[20],inactive
same,"activity change, negative = inhibition",[21],-29.2%
CC(=O)N1CCc2ccc(N(C(=O)/C=C/c3cccc(C#N)c3)C3CCN(CCC4CCCC4)CC3)cc21,"activity change, negative = inhibition",[22],inactive: 1.78%
same,"activity change, negative = inhibition",[23],inactive: 26.8%
same,Potency,[24],active: 7.08 µM
